Laboratory results as given in publication PMC4833353 (PLoS Pathogens, 2016).

Target: classical cholera toxin B-pentamer (Vibrio cholerae (classical biotype))

classical cholera toxin B-pentamer
stoichiometry N: 5
